A mixed list of measured activities; the numbers were collected in NIAID ChemDB.

All rows: growth or infection tests; organism: Cytomegalovirus; cells: HEL; measure: EC50

Conditions beyond the fields shown may differ between rows. ECn is the concentration giving n% inhibition of infection, replication or growth. An empty or dashed field is not shown.

structure,strain or isolate,read by,value
CC[C@@H](O)C1=C[C@@H](n2cnc3c(N)ncnc32)[C@H](O)[C@@H]1O,AD169,cytopathic effect,>50 µg/mL
Cc1ccc(C)c(C(CC(C)C)S(=O)(=O)c2cccc[n+]2[O-])c1,,cytopathic effect,0.27 µg/mL
CC1(C)[C@@H](CCO)C[C@H]1n1nnc2c(=O)[nH]cnc21,AD169,plaque count,>20 µg/mL
Nc1nc2c(ncn2CC(CO)OCP(=O)(O)O)c(=O)[nH]1,DAVIS,cytopathic effect,1 µg/mL
CC1(C)[C@@H](CCO)C[C@H]1n1nnc2c(Cl)nc(N)nc21,DAVIS,plaque count,>50 µg/mL
CCCCCCCCOc1ccc(/C=C(/C#N)Sc2cccc[n+]2[O-])cc1,,cytopathic effect,1.9 µg/mL
CC1(C)[C@@H](CCO)C[C@H]1n1nnc2c(=O)[nH]c(N)nc21,DAVIS,plaque count,>50 µg/mL
CC(C)CS[C@@H]1C[C@H](n2cnc3c(N)ncnc32)[C@@H](O)[C@H]1O,DAVIS,cytopathic effect,>200 µg/mL
O=S(=O)(Cc1ccccc1)c1ccccn1,,cytopathic effect,>50 µg/mL
NC1=NS(=O)(=O)N(Cc2ccccc2)c2nc[nH]c21,AD169,plaque count,>50 µg/mL
Nc1nc2c(ncn2COCCO)c(=O)[nH]1,AD169,cytopathic effect,30 µg/mL
CCOc1cccnc1SCc1ccccc1,,cytopathic effect,>50 µg/mL
Nc1nc(N)c2ncn([C@H]3CCC[C@H]3CO)c2n1,AD169,plaque count,>50 µg/mL
C=C[C@H](O)C1=C[C@@H](n2cnc3c(N)ncnc32)[C@H](O)[C@@H]1O,AD169,cytopathic effect,>50 µg/mL
O=S(=O)(Cc1cccc(F)c1)c1cccc[n+]1[O-],,cytopathic effect,>20 µg/mL
Nc1nc(=O)n([C@@H]2O[C@H](CO)[C@@H](O)[C@@H]2F)cc1I,DAVIS,cytopathic effect,7 µg/mL
CCCCCCCCCCCC(Sc1cccc[n+]1[O-])c1cc(C)ccc1C,,cytopathic effect,0.75 µg/mL
Nc1ncc2ncn(C[C@H]3CCC[C@H]3CO)c2n1,DAVIS,plaque count,>5 µg/mL
CC1(C)[C@@H](CO)CC[C@@]1(C)Cn1ccc(=O)[nH]c1=O,DAVIS,cytopathic effect,>50 µg/mL
Nc1ncnc2c1ncn2[C@@H]1C=C(CO)[C@@H](O)[C@H]1O,AD169,cytopathic effect,0.3 µg/mL
NC1=NS(=O)(=O)N(Cc2ccccc2)c2nc(Cc3ccccc3)[nH]c21,AD169,plaque count,9.2 µg/mL
C#C[C@@H](O)C1=C[C@@H](n2cnc3c(N)ncnc32)[C@H](O)[C@@H]1O,DAVIS,cytopathic effect,>50 µg/mL
CC1(C)[C@@H](CCO)C[C@H]1n1cnc2c(=O)[nH]cnc21,DAVIS,plaque count,>50 µg/mL
Cc1ccc(C)c(C(Cl)S(=O)(=O)c2c(C)ccc[n+]2[O-])c1,,cytopathic effect,>50 µg/mL
Nc1ncnc2c1ncn2C[C@@H](CO)OCP(=O)(O)O,DAVIS,cytopathic effect,1 µg/mL
Cc1ccc(C)c(C(C(N)=O)S(=O)(=O)c2cccc[n+]2[O-])c1,,cytopathic effect,10 µg/mL
Nc1nc(N)c2ncn(C[C@H]3CCC[C@H]3CO)c2n1,DAVIS,plaque count,>50 µg/mL
Nc1nc(Cl)c2ncn([C@H]3CO[C@@H](CO)C3)c2n1,DAVIS,cytopathic effect,>40 µg/mL
Nc1ncnc2c1ncn2C[C@H](O)CO,AD169,cytopathic effect,200 µg/mL
Cc1ccc(C)c(CS(=O)c2ncccc2O)c1,,cytopathic effect,>50 µg/mL
Nc1ncnc2c1ncn2C[C@H]1COP(=O)(O)CO1,DAVIS,plaque count,0.15 µg/mL
CC1(C)[C@@H](CO)CC[C@@]1(C)Cn1nnc2c(Cl)ncnc21,AD169,cytopathic effect,>50 µg/mL
O=S(=O)(Cc1ccccc1Oc1ccccc1)c1cccc[n+]1[O-],,cytopathic effect,>5 µg/mL
Nc1nc2c(ncn2[C@H]2CO[C@@H](CO)C2)c(=O)[nH]1,AD169,cytopathic effect,>40 µg/mL
CC1(C)[C@@H](CO)CC[C@@]1(C)Cn1cc(Br)c(=O)[nH]c1=O,DAVIS,cytopathic effect,>50 µg/mL
O=[N+]([O-])c1ccccc1CS(=O)(=O)c1cccc[n+]1[O-],,cytopathic effect,>5 µg/mL
CC1(C)[C@@H](CO)CC[C@@]1(C)Cn1nnc2c(N)ncnc21,AD169,cytopathic effect,>50 µg/mL
Cc1ccc[n+]([O-])c1S(=O)(=O)Cc1cccc([N+](=O)[O-])c1C,,cytopathic effect,>5 µg/mL
Nc1nc2c(ncn2COC(CO)CO)c(=O)[nH]1,AD169,cytopathic effect,4 µg/mL

The last 3 rows once more:

structure | strain or isolate | read by | value
CC1(C)[C@@H](CO)CC[C@@]1(C)Cn1nnc2c(N)ncnc21 | AD169 | cytopathic effect | >50 µg/mL
Cc1ccc[n+]([O-])c1S(=O)(=O)Cc1cccc([N+](=O)[O-])c1C |  | cytopathic effect | >5 µg/mL
Nc1nc2c(ncn2COC(CO)CO)c(=O)[nH]1 | AD169 | cytopathic effect | 4 µg/mL